Pooled drug test results. Numbers come from NIAID ChemDB, via PubChem.

All rows: target-level tests; organism: HIV-1; target: Reverse transcriptase; method: RT activity; measure: IC50

An empty or dashed field is not shown. Lines come from different laboratories, so protocols vary. ICn: concentration for n% inhibition.

SMILES | strain or isolate | changes | value
CC(C)C[C@@H](c1c(O)c(C=O)c(O)c(C=O)c1O)[C@@]1(C)CC[C@@H]2[C@@H]1[C@H]1[C@@H](CC[C@@]2(C)O)C1(C)C |  |  | 10 µM
CO[C@@H]1C[C@@H](C[C@H]2CC[C@H](C)[C@H]([C@@H](C)C(=O)O)O2)O[C@]2(O[C@](C)([C@H]3CC[C@@](C)([C@@H]4O[C@@H]([C@H]5O[C@@](O)(CO)[C@H](C)C[C@@H]5C)C[C@@H]4C)O3)C[C@H]2C)[C@@H]1C |  |  | >100 µg/mL
CCCN(C)c1nc([C@@H](C)c2c(F)cccc2F)c(C)c(=O)[nH]1 |  | Y1811 | >20 µM
Cc1cn([C@H]2C=C[C@@H](COP(=O)(O)NC(C)C(=O)O)O2)c(=O)[nH]c1=O |  |  | >100 µM
O=c1c(O)c(-c2ccc(O)cc2)oc2cc(O)cc(O)c12 |  |  | >100 µg/mL
Cc1cn([C@H]2C[C@H](N=[N+]=[N-])[C@@H](COP(=O)(O)OP(=O)(O)C(F)(F)P(=O)(O)O)O2)c(=O)[nH]c1=O |  |  | 0.62 µM
Cc1cn([C@H]2CC[C@@H](OCP(=O)(O)OP(=O)(O)OP(=O)(O)O)[C@@H]2F)c(=O)[nH]c1=O |  |  | 0.43 µM
O=C(/C=C/c1ccc(O)cc1)OC[C@H]1O[C@@H](Oc2c(-c3ccc(O)cc3)oc3cc(O)cc(O)c3c2=O)[C@H](O)[C@@H](O)[C@@H]1O |  |  | >100 µg/mL
CCc1c([Se]c2ccccn2)n(COCc2ccccc2)c(=O)[nH]c1=O |  | RT-L100I | 0.3 µM
CC(C)=CCN1C(=O)Nc2ccc(Cl)cc2S1(=O)=O | IIIB | RT-Y181C | >30 µM
CC(C)C[C@H](c1c(O)c(C=O)c(O)c(C=O)c1O)[C@@]1(C)CC[C@@H]2[C@@H]1[C@H]1[C@@H](CC[C@@]2(C)O)C1(C)C |  |  | 5.3 µM
COc1ccc2c(c1)N(C(=O)OC(C)C)[C@@H](CSC)C(=S)N2 |  |  | 0.006 µg/mL
O=c1cc(-c2ccccc2)oc2cc(O)c(OCc3ccccc3)c(OCc3ccccc3)c12 |  |  | >1000 µg/mL
Cc1nnn([C@H]2C[C@H](n3cc(C)c(=O)[nH]c3=O)O[C@@H]2COP(=O)(O)OP(=O)(O)OP(=O)(O)O)c1C | LAV |  | >50 µM
CC(C)[C@@H](C)/C=C/[C@@H](C)[C@H]1CCC2[C@@]34C=C[C@]5(C[C@@H](O)CC[C@]5(C)C3CC[C@@]21C)OO4 |  |  | >250 µM
CC(C)=CCNC(C)Cn1c(=S)[nH]c2ccccc21 |  |  | >100 µg/mL
Nc1ncnc2c1ccn2[C@H]1CC[C@@H](COP(=O)(O)OP(=O)(O)OP(=O)(O)O)O1 |  |  | 0.39 µM
Cc1ccc2c(c1O)C(=O)C=CC2=O |  |  | 23 µg/mL
CC(=O)c1ccc(C)cc1NC(C(N)=O)c1c(Cl)cccc1Cl | IIIB | RT-P225H | 1.9 µM
O=S(Cc1[nH]c2ccccc2c1Sc1ccccc1)c1ccccc1 |  |  | 0.06 µM
O=[N+]([O-])c1ccnc2c1ccn2[C@H]1CC[C@@H](COP(=O)(O)OP(=O)(O)OP(=O)(O)O)O1 |  |  | >1000 µM
O=c1cc(-c2ccccc2)oc2cc(O[C@H]3O[C@H](CO)[C@@H](O)[C@H](O)[C@H]3O)c(OCc3ccccc3)c(O)c12 |  |  | >1000 µg/mL
CCOc1cc(C)c(Cl)c2c1C(=O)C=CC2=O |  |  | 22 µg/mL
CC[C@@H](C(=O)[C@@H](C)[C@@H](O)[C@H](C)[C@@H]1O[C@@H]([C@@H](CC)C(=O)O)CC[C@@H]1C)[C@H]1O[C@@]2(C=C[C@@H](O)[C@@]3(CC[C@@](C)([C@H]4CC[C@](O)(CC)[C@H](C)O4)O3)O2)[C@H](C)C[C@@H]1C |  |  | >100 µg/mL
CCc1c([Se]c2ccccc2)n(COCc2ccccc2)c(=O)[nH]c1=O | RT-WT |  | 0.4 µM
COc1cc(C)c(Cl)c2c1C(=O)C=CC2=O |  |  | 25 µg/mL
CC(Cn1c(=S)[nH]c2ccccc21)N(C)Cc1ccccc1 |  |  | >100 µg/mL
Oc1ccccc1-c1c2nc(c(-c3ccccc3O)c3ccc([nH]3)c(-c3ccccc3O)c3nc(c(-c4ccccc4O)c4ccc1[nH]4)C=C3)C=C2 |  |  | 5 µM
Cc1cc(O)c2c(c1)C(O)C=CC2=O |  |  | >100 µg/mL
CO[C@H]1/C=C/O[C@@]2(C)Oc3c(C)c(O)c4c(c3C2=O)C(=O)C(SCCOC(=O)CCCC(=O)OC[C@@H]2O[C@H](n3cc(C)c(=O)[nH]c3=O)C[C@H]2N=[N+]=[N-])=C(NC(=O)/C(C)=C\C=C\[C@H](C)[C@H](O)[C@@H](C)[C@@H](O)[C@@H](C)[C@H](OC(C)=O)[C@@H]1C)C4=O | IIIB |  | ~300 µM
CC(C)OC(=O)OCOP(=O)(CO[C@H](C)Cn1cnc2c(N)ncnc21)OCOC(=O)OC(C)C |  |  | 0.38 µM
CO[C@H]1/C=C/O[C@@]2(C)Oc3c(C)c(O)c4c(c3C2=O)C(=O)C(SCCOC(=O)CCCC(=O)OC[C@@H]2O[C@H](n3cc(C)c(=O)[nH]c3=O)C[C@H]2N=[N+]=[N-])=C(NC(=O)/C(C)=C\C=C\[C@H](C)[C@@H]2OC(C)(C)O[C@@H]([C@@H](C)[C@H](OC(C)=O)[C@@H]1C)[C@@H]2C)C4=O | IIIB |  | ~300 µM
O=C(CCCCCCCCCCC(=O)Nc1cc(S(=O)(=O)O)cc2cc(S(=O)(=O)O)cc(O)c12)Nc1cc(S(=O)(=O)O)cc2cc(S(=O)(=O)O)cc(O)c12 |  |  | 2.8 µM
CO[C@H]1/C=C/O[C@@]2(C)Oc3c(C)c(O)c4c(c3C2=O)C(=O)C(SCCOC(=O)CCC(=O)OC[C@H]2O[C@@H](n3cc(C)c(=O)[nH]c3=O)C[C@@H]2N=[N+]=[N-])=C(NC(=O)/C(C)=C\C=C\[C@H](C)[C@@H]2OC(C)(C)O[C@@H]([C@@H](C)[C@H](OC(C)=O)[C@@H]1C)[C@@H]2C)C4=O | IIIB |  | ~300 µM
O=c1cc(-c2ccccc2)oc2cc(O[C@H]3O[C@H](CO)[C@@H](O)[C@@H]3O)c(OCc3ccccc3)c(O)c12 |  |  | >1000 µg/mL
C[C@H](CCC=C(CO)CO)[C@H]1C[C@H](O)[C@@]2(C)C3=CC[C@H]4C(C)(C)C(=O)CC[C@]4(C)C3=CC[C@]12C |  |  | >250 µM
CC(=O)OC[C@H]1O[C@@H](Oc2cc3oc(-c4ccccc4)cc(=O)c3c(OCc3ccccc3)c2OCc2ccccc2)[C@H](OC(C)=O)[C@@H](OC(C)=O)[C@@H]1OC(C)=O |  |  | >1000 µg/mL
Cc1cn([C@@H]2O[C@H](CO[Si](C)(C)C(C)(C)C)C3(OS(=O)(=O)C=C3N)[C@H]2O[Si](C)(C)C(C)(C)C)c(=O)n(C)c1=O | IIIB |  | 3 µM
NC(=O)c1[nH]c2ccc(Cl)cc2c1S(=O)c1ccccc1 |  |  | 0.02 µM
CCc1nc2ccccn2c1C(=O)c1cccs1 |  |  | 200 µM
CC(C)c1c(CO)cn(Cc2ccncc2)c1Sc1cc(Cl)cc(Cl)c1 |  |  | 0.2 µM
CC[C@@H](C(=O)[C@@H](C)[C@@H](O)[C@H](C)CCc1ccc(C)c(O)c1C(=O)O)[C@H]1O[C@](CC)([C@H]2CC[C@](O)(CC)[C@H](C)O2)C[C@@H]1C |  |  | >100 µg/mL
Cc1cn([C@H]2C[C@H](n3nncc3C)[C@@H](COP(=O)(O)OP(=O)(O)OP(=O)(O)O)O2)c(=O)[nH]c1=O | LAV |  | >50 µM
CC(C)=CCN1C(=O)c2cccn2-c2ccc(Cl)cc2S1(=O)=O | IIIB |  | 1.4 µM
Oc1ccc(-c2c3nc(c(-c4ccc(O)cc4)c4ccc([nH]4)c(-c4ccc(O)cc4)c4nc(c(-c5ccc(O)cc5)c5ccc2[nH]5)C=C4)C=C3)cc1 |  |  | 3 µM
C[C@H](CC[C@H](O)C(C)(O)CO)[C@H]1CC[C@@]2(C)C3=CCC4C(C)(C)[C@@H](O)CC[C@]4(C)C3=CC[C@]12C |  |  | >250 µM
CC(C)=CCN1Cc2cccc3[nH]c(=S)n(c23)C[C@@H]1C |  | RT-L100I | >20 µM
O=S(=O)(O)c1cc(O)c2c(NS(=O)(=O)c3ccc(-c4ccc(S(=O)(=O)Nc5cc(S(=O)(=O)O)cc6cc(S(=O)(=O)O)cc(O)c56)cc4)cc3)cc(S(=O)(=O)O)cc2c1 |  |  | 0.62 µM
CO[C@@H]1C=C2C3CC[C@H]([C@H](C)/C=C/C(C)C(C)C)[C@@]3(C)CCC2[C@@]2(C)CC[C@H](O)C[C@]12O |  |  | >250 µM
Cc1cc(O)c2c(c1)C(=O)C=C(c1c(C)cc(O)c3c1C(=O)C=CC3=O)C2=O |  |  | >100 µg/mL
CC(=O)OC[C@H]1O[C@@H](Oc2cc3oc(-c4ccccc4)cc(=O)c3c(OCc3ccccc3)c2OCc2ccccc2)[C@H](OC(C)=O)[C@@H](OC(C)=O)[C@H]1OC(C)=O |  |  | >1000 µg/mL
Cc1cc(O)c2c(c1F)C(=O)C=CC2=O |  |  | 13 µg/mL
CC(C)=CCN1C(C)C(=O)Nc2ccc(Cl)cc2S1(=O)=O | IIIB |  | 3.3 µM
Nc1nc2c([nH]c[n+]2[C@H]2C=C[C@@H](OCP(=O)(O)OP(=O)(O)OP(=O)(O)O)C2)c(=O)[nH]1 |  |  | 0.06 µM
CC(C)c1c(CO)cn(Cc2ccncc2)c1Sc1ccccc1 |  |  | 0.8 µM

For reference, 4 entries again:

SMILES,strain or isolate,changes,value
C[C@H](CC[C@H](O)C(C)(O)CO)[C@H]1CC[C@@]2(C)C3=CCC4C(C)(C)[C@@H](O)CC[C@]4(C)C3=CC[C@]12C,,,>250 µM
C[C@H](CCC=C(CO)CO)[C@H]1C[C@H](O)[C@@]2(C)C3=CC[C@H]4C(C)(C)C(=O)CC[C@]4(C)C3=CC[C@]12C,,,>250 µM
CC(=O)OC[C@H]1O[C@@H](Oc2cc3oc(-c4ccccc4)cc(=O)c3c(OCc3ccccc3)c2OCc2ccccc2)[C@H](OC(C)=O)[C@@H](OC(C)=O)[C@@H]1OC(C)=O,,,>1000 µg/mL
O=C(CCCCCCCCCCC(=O)Nc1cc(S(=O)(=O)O)cc2cc(S(=O)(=O)O)cc(O)c12)Nc1cc(S(=O)(=O)O)cc2cc(S(=O)(=O)O)cc(O)c12,,,2.8 µM